Patent US20210386367A1, “DEVICES AND SYSTEMS FOR GASTROINTESTINAL MICROBIOME DETECTION AND MANIPULATION” (Progenity, Inc., priority 2018, published 2021)

How the values were obtained:
[1] = test system: E. coli (ATCC 25922, ATCC 35218, MMX 1312); test: Spontaneous mutation frequency assay; type: cell-based, Escherichia coli; settings: E. coli MMX 1312
[2] = test system: Streptococcus spp.; test: Spontaneous mutation frequency assay; type: cell-based
[3] = test system: Bacteroides spp.; test: Spontaneous mutation frequency assay; type: cell-based; settings: B. vulgatus ATCC 8482
[4] = test system: E. coli spontaneous mutants; test: Broth microdilution MIC of spontaneous mutants; type: cell-based, Escherichia coli; settings: colonies selected at 4× and 8× the MIC
[5] = test system: E. coli, Streptococcus spp., and Bacteroides spp. isolates; type: cell-based; settings: SIBO pathogens in vitro

Compound: CO/N=C(\C(=O)N[C@@H]1C(=O)N2C(C(=O)O)=C(CSc3nc(=O)c(=O)[nH]n3C)CS[C@H]12)c1csc(N)n1 [ceftriaxone]
- colonies on selection plates [1]: too numerous to count
- colonies on selection plates [2]: No E. coli, Streptococcus spp., or B. vulgatus colonies were selected
- colonies on selection plates [3]: colonies were only observed at 4× the MIC
- broth microdilution MIC of selected colonies relative to parent strain [4]: consistent with that of the parent strain
- propensity for spontaneous resistance [5]: little propensity for resistance to develop spontaneously
